Anti-infective test results gathered from many reports (values: NIAID ChemDB through PubChem).

All rows: tests on isolated targets

Fold resistance: result on the changed form divided by that on wild type. Lines come from different laboratories, so protocols vary. Inhibition is in % at the dose shown (toxicity tests: loss of growth or viability). An empty or dashed field is not shown. ICn: concentration for n% inhibition.

compound,tested at,setting,strain or isolate,agent,changes,read-out,read by,protein,value
CC[C@H]1C=CCC[C@@]2(C[C@@H]3CC[C@H]4[C@H](C(=O)OCCCCCCCCCCCCCCCC(=O)N(CCC[NH3+])C[C@@H](O)CC[NH3+])[C@@]5(CCC[C@@H](C)O5)NC(=[N+]34)N2)O1,5 µM,-,NL4-3,HIV-1,-,inhibition,ELISA,Nef,89.3%
O=C1N(Cc2ccc(CO)cc2)[C@H](COc2ccccc2)[C@H](O)[C@@H](O)[C@@H](COc2ccccc2)N1Cc1ccc(CO)cc1,-,-,-,HIV,PR-V82A,Ki,fluorescence,Protease,0.00024 µM
O=c1cnc2ccccc2n1CCNC(=S)Nc1ccc(Br)cn1,-,-,-,HIV-1,RT-V106A,fold resistance,nucleotide incorporation,Reverse transcriptase,3.1
CC1(C)OC(=O)/C(=C/C(=O)c2c[nH]c3ccc(Br)cc23)O1,-,-,-,HIV-1,G140S,fold resistance,strand transfer / fluorescence,Integrase,0.8
CO[P@](=O)(c1cc(C)cc(/C=C/C#N)c1)c1c(C(N)=O)[nH]c2ccc(Cl)cc12,-,-,-,HIV,K103N,IC50,-,Reverse transcriptase,2.203 µM
CC1=C(CC(=O)O)c2cc(F)ccc2/C1=C\c1ccc(S(C)=O)cc1,10 µM,-,-,HIV-1,-,inhibition,AlphaScreen,Integrase,33.75%
CN[C@@H]1[C@@H](O)[C@@H](O[C@@H]2[C@@H](O)[C@H](O[C@H]3O[C@H]([C@@H](C)N)CC[C@H]3N)[C@@H](N)C[C@H]2N)OC[C@]1(C)O,100 µM,-,-,HIV-1,-,inhibition,gel,Rev:RRE,0%
CCOC(=O)C(C(=O)OCC)c1cn(Cc2cc(F)ccc2F)c2ccc(F)cc12,-,-,-,HIV-1,-,IC50,strand transfer / fluorescence,Integrase,19.8 µM
CC(C)=CCOc1cc(NC(=S)c2ccoc2C)ccc1Cl,-,-,-,HIV,RT-N137E,IC50,nucleotide incorporation / radiometric,Reverse transcriptase,0.032 µM
O=C(O)C(=O)/C=C(\O)c1cn(Cc2cc(F)ccc2F)c2ccc(Br)cc12,-,-,-,HIV-1,G140S,fold resistance,strand transfer / fluorescence,Integrase,0.8
C=CCOC(=O)C1=C(CCCCC[C@@H](C)O[Si](C)(C)C(C)(C)C)NC2=[N+]3[C@H](CC[C@@H]13)C[C@H](C)N2,5 µM,-,NL4-3,HIV-1,-,inhibition,ELISA,Nef,94.7%
Cc1cn([C@@H]2O[C@H](CO[Si](C)(C)C(C)(C)C)[C@@]3(OS(=O)(=O)C=C3N)[C@H]2O[Si](C)(C)C(C)(C)C)c(=O)[nH]c1=O,-,-,-,HIV,RT-N137A,fold resistance,nucleotide incorporation / radiometric,Reverse transcriptase,1.1
Cc1cc(SC2=C(O)C[C@@](CCc3ccc(O)cc3)(C(C)C)OC2=O)c(C(C)(C)C)cc1N,10 µM,-,-,HIV,-,inhibition,HPLC,Protease,3.2%
O=C(O)C(=O)/C=C(\O)c1cn(Cc2cc(F)ccc2F)c2ccc(F)cc12,-,-,-,HIV-1,-,IC50,strand transfer / fluorescence,Integrase,0.5 µM
O=C(O)c1cc(-c2ccc(F)cc2F)ccc1O,10 µM,-,-,HIV-1,-,inhibition,AlphaScreen,Integrase,42.76%
CCOC(=O)C(C(=O)OCC)c1cn(S(=O)(=O)c2ccc(C)cc2)c2ccc(NC(=O)c3cccc(C)c3O)cc12,-,-,-,HIV-1,-,IC50,strand transfer / fluorescence,Integrase,20.3 µM
CC(C)c1c(C(=O)Nc2ccccc2)c(-c2ccccc2)c(-c2ccc(F)cc2)n1CC[C@@H](O)C[C@@H](O)CC(=O)O,10 µM,-,-,HIV-1,-,inhibition,AlphaScreen,Integrase,51.85%
c1ccc(C2SCc3nc4ccccc4n32)cc1,-,-,-,HIV,RT-Y181I Y188L,IC50,-,Reverse transcriptase,>50 µM
O=C(O)c1cccnc1Nc1cccc(C(F)(F)F)c1,10 µM,-,-,HIV-1,-,inhibition,AlphaScreen,Integrase,17.16%
CNC(=O)[C@@H](NC(=O)[C@H](OCc1ccccc1)[C@H](O)[C@@H](O)[C@@H](OCc1ccccc1)C(=O)N[C@H]1c2ccccc2C[C@H]1O)C(C)C,-,-,-,HIV,PR-L90M,fold resistance,-,Protease,1.61
CCCCCCC[C@H](O)C[C@@H]1CC[C@H]2C(C(=O)O[C@H](C)CCCCCCC[C@@H]3C[C@@H]4CC[C@@H]5C[C@H](C)NC(=[N+]54)N3)=C(C)NC(N)=[N+]12,5 µM,-,NL4-3,HIV-1,-,inhibition,ELISA,Nef,87.2%
NCCC(O)C(=O)N[C@H]1C[C@@H](N)[C@H](O[C@H]2O[C@H](CN)[C@@H](O)[C@H](O)[C@H]2N)[C@@H](O[C@@H]2O[C@H](CO)[C@H](O)[C@H]2O)[C@@H]1O,100 µM,-,-,HIV-1,-,inhibition,gel,Rev:RRE,0%
Cc1cc(S(N)(=O)=O)ccc1NC(=O)COc1ccc(Cl)cc1C(=O)c1cc(Cl)cc(C#N)c1,-,-,-,HIV-1,RT-V108I,fold resistance,fluorescence,Reverse transcriptase,1.11
CC1(C)OC(=O)/C(=C/C(=O)c2cn(Cc3ccc(F)cc3)c3ccc(Br)cc23)O1,-,-,-,HIV-1,G140S,fold resistance,strand transfer / fluorescence,Integrase,1
O=S1(=O)N(Cc2ccc(-c3cccs3)cc2)[C@H](COc2ccccc2)[C@H](O)[C@@H](O)[C@@H](COc2ccccc2)N1Cc1ccc(-c2cccs2)cc1,-,-,-,HIV-1,PR-V82A,fold resistance,-,Protease,8.37
O=C(NCCNC(=O)c1cc2cc(O)c(O)cc2[nH]1)c1cc2cc(O)c(O)cc2[nH]1,-,-,-,HIV-1,-,IC50,RNase H / fluorescence,RNase H + Reverse transcriptase,24 µM
NC[C@H]1O[C@H](O[C@H]2[C@H](O)[C@@H](O[C@H]3O[C@H](CO)[C@@H](O)[C@H](N)[C@H]3O)[C@H](N)C[C@@H]2N)[C@H](N)[C@@H](O)[C@@H]1O,-,-,-,HIV-1,-,IC50,gel,Rev:RRE,<100 µM
CC[C@H]1C(=O)Nc2ccc(F)cc2N1C(=O)OC(C)C,-,-,-,HIV,RT-N137A,fold resistance,nucleotide incorporation / radiometric,Reverse transcriptase,0.91
CCCCCCC[C@H](O)C[C@@H]1CC[C@H]2C(C(=O)O[C@@H](C)CCCCCCC[C@@H]3C[C@@H]4CC[C@@H]5C[C@H](C)NC(=[N+]54)N3)=C(C)NC(N)=[N+]12,-,-,NL4-3,HIV-1,-,IC50,ELISA,Nef,<5 µM
NC[C@H]1O[C@H](O[C@H]2[C@H](O)[C@@H](O[C@H]3O[C@H](CO)[C@@H](O)[C@H](N)[C@H]3O)[C@H](N)C[C@@H]2N)[C@H](N)C[C@@H]1O,-,-,-,HIV-1,-,IC50,gel,Rev:RRE,<10 µM
O=C1c2cccnc2C(=O)N1CCNC(=S)Nc1ccc(Br)cn1,-,-,-,HIV-1,RT-Y181I,fold resistance,nucleotide incorporation,Reverse transcriptase,10.5
Cc1cccc(C)c1OCC(=O)N[C@@H](Cc1ccccc1)[C@H](O)CN1CC[C@@H](Sc2ccncc2)C[C@H]1C(=O)NC(C)(C)C,-,-,-,HIV,PR-L23I V32I M46I I47V I54M A71V I84V,Ki,fluorescence,Protease,0.0681 µM
CC(C)C[C@H](NC(=O)[C@H](C)NC(=O)C[C@H](O)[C@H](CC(C)C)NC(=O)[C@@H](NC(=O)[C@@H](NC(=O)C(C)O)C(C)C)C(C)C)[C@@H](O)CC(=O)O,-,pH 7.0,-,HIV-2,-,IC50,HPLC,Protease,1.5 µM
Cc1ccc(S(=O)(=O)n2cc(C(C(=O)O)C(=O)O)c3cc(NC(=O)c4cccc(C)c4O)ccc32)cc1,-,-,-,HIV-1,Y143R,IC50,strand transfer / fluorescence,Integrase,>25 µM
COc1ccc(/C=C/NC(=O)Nc2ccc(Cl)cn2)cc1OC,-,-,-,HIV-1,RT-Y181I,Ki,nucleotide incorporation,Reverse transcriptase,>20 µM
CNC(=O)c1cccc(CN2[C@H](COc3ccccc3)[C@H](O)[C@@H](O)[C@@H](COc3ccccc3)N(Cc3cccc(C(=O)NC)c3)S2(=O)=O)c1,-,-,-,HIV-1,PR-I84V,fold resistance,-,Protease,14.4
Cc1cc2c(cc1C)n1cccc1c(=O)n2CCNC(=S)Nc1ccc(Br)cn1,-,-,-,HIV-1,RT-Y188L,fold resistance,nucleotide incorporation,Reverse transcriptase,10
O=C(NCCc1ccc(O)c(O)c1)c1cc2cc(O)c(O)cc2[nH]1,-,-,-,HIV-1,-,IC50,RNase H / fluorescence,RNase H + Reverse transcriptase,17 µM
CC(C)[C@H](NC(=O)c1ccc2ccccc2n1)C(=O)N[C@@H](Cc1ccccc1)[C@H](O)CN1CC[C@@H](SCc2cccnc2)C[C@H]1C(=O)NC(C)(C)C,-,-,-,HIV,PR-L10I L23I M46I I84V,Ki,fluorescence,Protease,0.000071 µM
NC[C@H]1O[C@H](O[C@H]2[C@H](O)[C@@H](O[C@H]3O[C@H](CO)[C@@H](O)[C@H](N)[C@H]3O)[C@H](N)C[C@@H]2N)[C@H](O)[C@@H](O)[C@@H]1O,100 µM,-,-,HIV-1,-,inhibition,gel,Rev:RRE,0%
CC[C@H]1C=CCC[C@@]2(C[C@@H]3CC[C@@H]4[C@H](C(=O)OCc5ccccc5)[C@]5(CCC[C@@H](C)O5)NC(=[N+]34)N2)O1,5 µM,-,NL4-3,HIV-1,-,inhibition,ELISA,Nef,80.6%
O=c1c2cccn2c2cc(Cl)c(Cl)cc2n1CCNC(=S)Nc1ccc(Br)cn1,-,-,-,HIV-1,-,Ki,nucleotide incorporation,Reverse transcriptase,0.02 µM
CC[C@H]1C=CCC[C@@]2(C[C@@H]3CC[C@@H]4[C@H](C(=O)OCCCCCCCCCCCCCCCC(=O)N(CCC[NH3+])CCCC[NH3+])[C@]5(CCC[C@@H](C)O5)NC(=[N+]34)N2)O1,-,-,NL4-3,HIV-1,-,IC50,ELISA,Nef,<5 µM
NC[C@H]1O[C@H](O[C@H]2[C@H](O)[C@@H](O)[C@H](N)C[C@@H]2N)[C@H](N)[C@@H](O)[C@@H]1O,-,-,-,HIV-1,-,IC50,gel,Rev:RRE,<100 µM
O=c1c2cccn2c2ccccc2n1CCNC(=S)Nc1ccc(Cl)cn1,-,-,-,HIV-1,RT-L100I,Ki,nucleotide incorporation,Reverse transcriptase,0.9 µM

For reference, 6 entries again:

compound | tested at | setting | strain or isolate | agent | changes | read-out | read by | protein | value
NC[C@H]1O[C@H](O[C@H]2[C@H](O)[C@@H](O[C@H]3O[C@H](CO)[C@@H](O)[C@H](N)[C@H]3O)[C@H](N)C[C@@H]2N)[C@H](O)[C@@H](O)[C@@H]1O | 100 µM | - | - | HIV-1 | - | inhibition | gel | Rev:RRE | 0%
O=C(O)c1cccnc1Nc1cccc(C(F)(F)F)c1 | 10 µM | - | - | HIV-1 | - | inhibition | AlphaScreen | Integrase | 17.16%
O=C1N(Cc2ccc(CO)cc2)[C@H](COc2ccccc2)[C@H](O)[C@@H](O)[C@@H](COc2ccccc2)N1Cc1ccc(CO)cc1 | - | - | - | HIV | PR-V82A | Ki | fluorescence | Protease | 0.00024 µM
O=C(O)c1cc(-c2ccc(F)cc2F)ccc1O | 10 µM | - | - | HIV-1 | - | inhibition | AlphaScreen | Integrase | 42.76%
O=c1cnc2ccccc2n1CCNC(=S)Nc1ccc(Br)cn1 | - | - | - | HIV-1 | RT-V106A | fold resistance | nucleotide incorporation | Reverse transcriptase | 3.1
O=C1c2cccnc2C(=O)N1CCNC(=S)Nc1ccc(Br)cn1 | - | - | - | HIV-1 | RT-Y181I | fold resistance | nucleotide incorporation | Reverse transcriptase | 10.5